Experimental data: patent CN109384844A, “一种抗金黄色葡萄球菌α溶血素单克隆抗体及应用” (INST OF BASIC MEDICAL SCIENCES THE ACADEMY OF MILITARY …, dated 2019)

Target: T1, Hla蛋白 (金黄色葡萄球菌α溶血素, 具有His-tag标签) (Staphylococcus aureus)
T1 chain: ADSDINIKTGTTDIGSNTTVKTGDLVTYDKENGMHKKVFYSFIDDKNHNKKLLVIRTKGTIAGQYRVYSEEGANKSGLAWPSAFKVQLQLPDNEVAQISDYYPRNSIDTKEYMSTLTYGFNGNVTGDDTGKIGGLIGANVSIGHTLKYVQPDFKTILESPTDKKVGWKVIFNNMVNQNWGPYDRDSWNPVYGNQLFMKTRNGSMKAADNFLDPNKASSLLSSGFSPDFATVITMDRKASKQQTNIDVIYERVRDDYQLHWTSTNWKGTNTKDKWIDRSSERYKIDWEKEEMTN
Assay: cell-based or functional assay

B1: AAH-1抗体 (antibody, V domains shown)
VH: QMQLVQSGAEIRRPGSLVKVSCQASGGSFKNFALNWVRQAPGLGLQWMGSITPFLNVPTYAQQFQGRVTMSTDTSTSTAYMVLRRLTSDDTAVYYCARGNSLLDYWGQGTLVTVSS
VL: EIVLTQSPATLSVSPGDGATLSCRASQSVSGNLAWYQKKPGQAPRLLIYDTSIRAAGVPPRFSGSGSGTEFTLTISSLQSEDFAVYYCQQYHNLPPLTFGPGTKLEIK
抑制Hla蛋白对兔红细胞的溶血活性 (OD405 of supernatant): 1 molar ratio AAH-1:Hla for complete inhibition
